The target of this assay is Peptidoglycan-N-acetylglucosamine deacetylase (Streptococcus pneumoniae (strain ATCC BAA-255 / R6), UniProt Q8DP63).

Protein sequences, listed by entry. Tags and fused reporters are not part of them.
UniProt Q8DP63, whole entry, looked up: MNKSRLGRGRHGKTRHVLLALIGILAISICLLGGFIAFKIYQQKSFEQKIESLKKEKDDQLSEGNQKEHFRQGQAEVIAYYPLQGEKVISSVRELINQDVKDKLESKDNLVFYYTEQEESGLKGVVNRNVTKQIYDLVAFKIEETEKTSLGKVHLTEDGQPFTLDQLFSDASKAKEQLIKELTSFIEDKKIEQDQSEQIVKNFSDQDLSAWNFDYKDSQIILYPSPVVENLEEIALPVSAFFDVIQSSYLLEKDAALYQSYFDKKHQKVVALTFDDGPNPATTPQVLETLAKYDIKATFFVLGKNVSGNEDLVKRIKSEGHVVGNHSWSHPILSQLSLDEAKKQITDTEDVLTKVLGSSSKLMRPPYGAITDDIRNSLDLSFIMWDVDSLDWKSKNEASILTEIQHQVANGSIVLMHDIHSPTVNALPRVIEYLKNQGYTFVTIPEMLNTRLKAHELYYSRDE

Structures are written as SMILES.

For orientation: Ki means a dissociation constant, usually derived from enzyme kinetics or from competition with a known ligand. The low end stands for a stronger hold on the target, the high end for a looser hold on the target. Consider `CP(=O)(O)N[C@H]1[C@H](OCc2ccccc2)O[C@H](CO)[C@@H](OCc2ccccc2)[C@@H]1O`, for which the Ki turned out to be 80 µM.

Values taken from ChEMBL document CHEMBL4261622, “Monosaccharide inhibitors targeting carbohydrate esterase family 4 de-N-acetylases” (Bioorg Med Chem, 2018).
